# Share of PSTVd loop 15 variants by leaf site

The pool varies loop 15 of the PSTVd intermediate strain in the pattern GGAAACCGNNNNNNC; wild type is GGAAACCGCUACUAC (upper and lower strand joined, each 5' to 3', the first 7 letters being the upper strand, closing pairs included).

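A pool of all variants was put on leaves of three Nicotiana benthamiana plants. Progeny were sequenced from the inoculated region (day 5), the margin of the inoculated leaf (day 10) and systemic leaves (day 12).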

Values are reads per thousand in the sample; higher means more abundant, 0 means not found. Each value is the mean of three plants. "Pool" is the share in the plasmid pool used as inoculum, on the same scale. The inoculated region was read from the minus strand, the other sites from the plus strand. IR is the inoculated region, LM the leaf margin, Sys the systemic leaves. The authors trace changes outside the varied positions to PCR and sequencing errors or to mutation in the plant; presence does not show that a variant is infectious alone. Wild type was 33.9 per thousand in the pool and the most common sequence in every sample (inoculated region 202, 200, 159; leaf margin 724, 746, 710; systemic leaves 856, 883, 880). Samples held 43,870 to 66,106 reads, so the smallest values rest on one or two reads.

For GGAAACCGUCUACAC (pool 0.288) the result was IR 0.0914; LM 0.00742; Sys 0.00760. GGAAACCGCAACUUC (pool 0.192) gave IR 0.347; LM 0.0926; Sys 0.0455. GGAAACCGCCACAGC (pool 0.272) read IR 0.0909; LM 0; Sys 0. With GGAAACCGGAGACUC (pool 0.288) the assay gave IR 0.0974; LM 0.00539; Sys 0. GGAAACCGAGUCACC (pool 0.256) read IR 0.0612; LM 0.00539; Sys 0.00537. For GGAAACCGAUGUUUC (pool 0.192) the result was IR 0.139; LM 0.0121; Sys 0. For GGAAACCGCGGCCGC (pool 0.112) the result was IR 0.0912; LM 0.00539; Sys 0.00537.

With GGAAACCGCGUGGCC (pool 0.208) the assay gave IR 0.106; LM 0.0187; Sys 0. GGAAACCGCCCGCUC (pool 0.224) read IR 0.0803; LM 0.0141; Sys 0.0183. For GGAAACCGAUCCAUC (pool 0.256) the result was IR 0.165; LM 0.0328; Sys 0.0107. GGAAACCGAGAGGGC (pool 0.368) gave IR 0.280; LM 0.0134; Sys 0.0107. GGAAACCGCCUAACC (pool 0.272) gave IR 0.0705; LM 0.00539; Sys 0.00537. For GGAAACCGAAGUCUC (pool 0.208) the result was IR 0.0739; LM 0.00539; Sys 0. GGAAACCGCUUGUAC (pool 0.288) gave IR 0.300; LM 0.115; Sys 0.0695.

With GGAAACCGUUAUGUC (pool 0.272) the assay gave IR 0.0787; LM 0.00668; Sys 0. With GGAAACCGCAUACAC (pool 0.320) the assay gave IR 0.0923; LM 0.00668; Sys 0. GGAAACCGGGAGAGC (pool 0.240) read IR 0.0666; LM 0.0195; Sys 0. GGAAACCGAGUUAUC (pool 0.320) gave IR 0.0940; LM 0.0282; Sys 0.00537. GGAAACCGUAGAUCC (pool 0.192) gave IR 0.0588; LM 0.00539; Sys 0.0130. For GGAAACCGGACAUUC (pool 0.208) the result was IR 0.0720; LM 0; Sys 0. With GGAAACCGUUCGCGC (pool 0.256) the assay gave IR 0.0679; LM 0.0141; Sys 0.00537.

With GGAAACCGAUAGCCC (pool 0.256) the assay gave IR 0.112; LM 0.0128; Sys 0. With GGAAACCGCGGGUUC (pool 0.224) the assay gave IR 0.232; LM 0.125; Sys 0.0382. For GGAAACCGUAGGUGC (pool 0.240) the result was IR 0.321; LM 0.104; Sys 0.0161.

The opening 2 entries, copied out:

sequence,pool,IR,LM,Sys
GGAAACCGUCUACAC,0.288,0.0914,0.00742,0.00760
GGAAACCGCAACUUC,0.192,0.347,0.0926,0.0455

Values reported by Wu et al. 2024 (doi:10.1371/journal.ppat.1012142).